Measured data: PubChem BioAssay AID504761 (Drosophila RNAi Screening Center, 2011)
Aim: 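Genome-wide fly cell screen for genes dengue virus requires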 (primary screen). Cell system: D.Mel-2 cells from Drosophila. Knock-down reagent: long dsRNA against Drosophila genes. Conditions: infection with dengue virus type 2; dose and infection time not stated. Measurement: 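Per well on two replicate plates, imaging gave the percent of cells positive for viral envelope protein, ranked by infection, and a nuclear count of cells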. Direction: infection score: higher = more virus-infected cells. Hit rule: 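Very low infection ranking in both replicate wells (chance probability at most 0.065), then a retest showing infection dropped 1.5-fold or more at p below 0.05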. Meaning of the calls: active = confirmed: knock-down lowers infection; inactive = not picked or not confirmed.
In all, the deposit lists about 22,000 reagents; below is a random part of those with a known target gene and a result. In the full data, 116 (0.52%) are marked active. 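Calls depend on retest data that are not deposited; infection was ranked per plate without normalising between plates; the unit of the infection score is not given.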 The numbers tell different reagents against one gene apart. Further read-outs or replicates are left out here. Reagent sequences are not shown. Not given: the amount of reagent, the time to read-out.

lbk (lambik) → infection score, replicate 1: 2.95; call: active
Acp36DE (Accessory gland protein 36DE) → infection score, replicate 1: 1.05; call: inactive
Mipp2 (Multiple inositol polyphosphate phosphatase 2) → infection score, replicate 1: 1.94; call: inactive
CG10477 #1 → infection score, replicate 1: 0.6; call: inactive
CG10477 #2 → infection score, replicate 1: 4.92; call: inactive
TpnC4 (Troponin C isoform 4) → infection score, replicate 1: 8.46; call: inactive
Slc45-1 → infection score, replicate 1: 3.65; call: inactive
CG6012 → infection score, replicate 1: 7.32; call: inactive
CG6329 → infection score, replicate 1: 15.7; call: inactive
CG11309 #1 → infection score, replicate 1: 1.79; call: inactive
CG11309 #2 → infection score, replicate 1: 21.4; call: inactive
Paf-AHalpha (Platelet-activating factor acetylhydrolase alpha) → infection score, replicate 1: 3.83; call: inactive
CG33966 #1 → infection score, replicate 1: 3.16; call: inactive
CG33966 #2 → infection score, replicate 1: 19.7; call: inactive
CG3515 → infection score, replicate 1: 1.82; call: inactive
CG13216 → infection score, replicate 1: 4.35; call: inactive
CG13895 → infection score, replicate 1: 1.85; call: inactive
unc-119 → infection score, replicate 1: 2.41; call: inactive
CG6972 #1 → infection score, replicate 1: 1.8; call: inactive
CG6972 #2 → infection score, replicate 1: 1.2; call: inactive
VhaM9.7-b (Vacuolar H[+] ATPase M9.7 subunit b) → infection score, replicate 1: 7.43; call: inactive
Usp1 (Ubiquitin specific protease 1) → infection score, replicate 1: 1.07; call: inactive
CG7512 → infection score, replicate 1: 2.12; call: inactive
CG7094 #1 → infection score, replicate 1: 9.95; call: inactive
CG7094 #2 → infection score, replicate 1: 15; call: inactive
dpr10 (defective proboscis extension response 10) #1 → infection score, replicate 1: 2.6; call: inactive
dpr10 (defective proboscis extension response 10) #2 → infection score, replicate 1: 4.7; call: inactive
dpr10 (defective proboscis extension response 10) #3 → infection score, replicate 1: 6.62; call: inactive

Laid out differently: entries from further up.
{"gene":"CG33966","reagent":2,"infection score, replicate 1":19.7,"call":"inactive"}
{"gene":"CG3515","reagent":1,"infection score, replicate 1":1.82,"call":"inactive"}
{"gene":"CG13216","reagent":1,"infection score, replicate 1":4.35,"call":"inactive"}
{"gene":"CG13895","reagent":1,"infection score, replicate 1":1.85,"call":"inactive"}
